Experiment [1] can be described thus: Ratio of CC50 value that of EC50 value(HIV-2). The experiment is classed as functional. In short, it runs like this: (§1)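 Selectivity index as the CC50/EC50 ratio. CC50 comes from mock-infected MT-4 viability by MTT. EC50 comes from MTT-measured protection of MT-4 cells infected with 100 CCID50 of HIV-1 IIIB or HIV-2 CBL 20. Data are means of three experiments.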

Experiment [2] is described as follows: Ratio of CC50 value that of EC50 value(HIV-1). The format is functional. In short, it runs like this: as §1

Drawing on ChEMBL document CHEMBL1127858, “Synthesis and evaluation of the anti-HIV activity of aza and deaza analogues of isoddA and their phosphates as prodrugs” (J Med Chem, 1994), this text covers Ratio for 1 molecule.

As for `Cc1cn([C@H]2C[C@H](N=[N+]=[N-])[C@@H](CO)O2)c(=O)[nH]c1=O` [ZIDOVUDINE], the Ratio in experiment [1] was over 2000; in experiment [2], over 8000.
